Values after ≈ are worked out from the molar mass of the structure shown.
Key:
C. albicans (MYA-2876) [1] = assay: Passaging assay (resistance development); format: cell-based, Candida albicans; conditions: 1/10th of MIC daily, 21 passages, regardless of passage
[2] = test system: A. fumigatus (ATCC 1022) spores; assay: Checkerboard assay adapted for spores
C. albicans (MYA-2876) [3] = assay: Confocal microscopy; format: cell-based, Candida albicans; conditions: 5× MIC, 24 h
Candida albicans = assay: Susceptibility assay (MIC, broth microdilution, CLSI M27); format: cell-based; conditions: for MIC: 24 h; for MIC NO Dose: calculated NO dose at MIC
Candida auris = assay: as above; format: cell-based; conditions: for MIC: 24 h; for MIC NO Dose: calculated NO dose at MIC
Cryptococcus neoformans = assay: as above; format: cell-based; conditions: for MIC: 72 h; for MIC NO Dose: calculated NO dose at MIC
[4] = test system: C. neoformans (ATCC 208821); assay: Checkerboard assay of NO donors with antifungals; format: cell-based, Cryptococcus neoformans
C. auris (ATCC MYA-5001) = assay: Checkerboard assay of NO donors with antifungals; format: cell-based, Candida auris
C. auris (MYA-5001) = assay: Passaging assay (resistance development); format: cell-based, Candida auris; conditions: 1/10th of MIC daily, 21 passages, regardless of passage
[5] = test system: Aspergillus fumigatus spores; assay: Susceptibility assay for sporulating fungi (MIC, EUCAST E.Def.9.4); format: cell-based; conditions: Aspergillus fumigatus ATCC 1022 spores
[6] = test system: C. neoformans (ATCC208821); assay: Passaging assay (resistance development); format: cell-based, Cryptococcus neoformans; conditions: 1/10th of MIC daily, 21 passages, regardless of passage
[7] = test system: C. albicans (ATCC MYA-2876); assay: Checkerboard assay of NO donors with antifungals; format: cell-based, Candida albicans
[8] = NO donor (24 h pretreatment of spores) then 5-fluorocytosine
[9] = NO donor (24 h pretreatment of spores) then amphotericin B
[10] = NO donor (24 h pretreatment of spores) then butenafine
[11] = NO donor (24 h pretreatment of spores) then caspofungin
[12] = NO donor (24 h pretreatment of spores) then fluconazole
[13] = NO donor (24 h pretreatment of spores) then miconazole
[14] = Cryptococcus neoformans ATCC 208821
[15] = Cryptococcus neoformans ATCC MYA-4567
[16] = NO donor combined with 5-fluorocytosine
[17] = NO donor combined with amphotericin B
[18] = NO donor combined with butenafine
[19] = NO donor combined with caspofungin
[20] = NO donor combined with fluconazole
[21] = NO donor combined with miconazole

[O-]/[N+](=N\O)C(/[N+]([O-])=N/O)/[N+]([O-])=N/O
change in MIC or MFCs after serial passaging (C. albicans (MYA-2876) [1]): no change | checkerboard classification [2, 8]: I (indifferent (I)) | ∑FIC [2, 8]: ≥ 1 | checkerboard classification [2, 9]: I (indifferent (I)) | ∑FIC [2, 9]: ≥ 1 | checkerboard classification [2, 10]: I (indifferent (I)) | ∑FIC [2, 10]: ≥ 1 | checkerboard classification [2, 11]: I (indifferent (I)) | ∑FIC [2, 11]: ≥ 1 | checkerboard classification [2, 12]: I (indifferent (I)) | ∑FIC [2, 12]: ≥ 1 | checkerboard classification [2, 13]: I (indifferent (I)) | ∑FIC [2, 13]: ≥ 1 | intracellular NO (DAF-2 DA fluorescence) (C. albicans (MYA-2876) [3]): increased NO levels within treated fungi | propidium iodide fluorescence (cell death) (C. albicans (MYA-2876) [3]; relative to control sample): visual increase in PI fluorescence | hyphae formation (calcofluor white staining) (C. albicans (MYA-2876) [3]; relative to controls): marked decrease in hyphae formation | MIC (Candida albicans; Candida albicans ATCC 14053): 150 µg/mL (≈ 765 µM) | MIC NO Dose (Candida albicans; Candida albicans ATCC 14053): 22.4 µg/mL (≈ 114 µM) | MIC (Candida albicans; Candida albicans ATCC 18804): 40 µg/mL (≈ 204 µM) | MIC NO Dose (Candida albicans; Candida albicans ATCC 18804): 5.98 µg/mL (≈ 30.5 µM) | MIC (Candida albicans; Candida albicans ATCC MYA-2876): 60 µg/mL (≈ 306 µM) | MIC NO Dose (Candida albicans; Candida albicans ATCC MYA-2876): 8.98 µg/mL (≈ 45.8 µM) | MIC (Candida auris; Candida auris ATCC MYA-5000): 30 µg/mL (≈ 153 µM) | MIC NO Dose (Candida auris; Candida auris ATCC MYA-5000): 4.49 µg/mL (≈ 22.9 µM) | MIC (Candida auris; Candida auris ATCC MYA-5001): 20 µg/mL (≈ 102 µM) | MIC (Candida auris; Candida auris ATCC MYA-5003): 40 µg/mL (≈ 204 µM) | MIC NO Dose (Candida auris; Candida auris ATCC MYA-5003): 5.98 µg/mL (≈ 30.5 µM) | MIC (Cryptococcus neoformans; [14]): 30 µg/mL (≈ 153 µM) | MIC NO Dose (Cryptococcus neoformans; [14]): 4.50 µg/mL (≈ 22.9 µM) | MIC NO Dose (Cryptococcus neoformans; Cryptococcus neoformans ATCC MYA-4566): 2.99 µg/mL (≈ 15.2 µM) | MIC (Cryptococcus neoformans; [15]): 20 µg/mL (≈ 102 µM) | MIC NO Dose (Cryptococcus neoformans; [15]): 2.99 µg/mL (≈ 15.2 µM) | checkerboard classification [4, 16]: I (indifferent (I)) | ∑FIC [4, 16]: ≥ 1 | checkerboard classification [4, 17]: I (indifferent (I)) | ∑FIC [4, 17]: ≥ 1 | checkerboard classification [4, 18]: A (additive (A)) | ∑FIC [4, 18]: 0.500 | checkerboard classification [4, 19]: I (indifferent (I)) | ∑FIC [4, 19]: ≥ 1 | checkerboard classification [4, 20]: I (indifferent (I)) | ∑FIC [4, 20]: ≥ 1 | checkerboard classification [4, 21]: I (indifferent (I)) | ∑FIC [4, 21]: ≥ 1 | checkerboard classification (C. auris (ATCC MYA-5001); [16]): I (indifferent (I)) | ∑FIC (C. auris (ATCC MYA-5001); [16]): ≥ 1 | checkerboard classification (C. auris (ATCC MYA-5001); [17]): I (indifferent (I)) | ∑FIC (C. auris (ATCC MYA-5001); [17]): ≥ 1 | checkerboard classification (C. auris (ATCC MYA-5001); [18]): I (indifferent (I)) | ∑FIC (C. auris (ATCC MYA-5001); [18]): ≥ 1 | checkerboard classification (C. auris (ATCC MYA-5001); [19]): I (indifferent (I)) | ∑FIC (C. auris (ATCC MYA-5001); [19]): ≥ 1 | checkerboard classification (C. auris (ATCC MYA-5001); [20]): I (indifferent (I)) | ∑FIC (C. auris (ATCC MYA-5001); [20]): ≥ 1 | checkerboard classification (C. auris (ATCC MYA-5001); [21]): A (additive (A)) | ∑FIC (C. auris (ATCC MYA-5001); [21]): 0.562 | change in MIC or MFCs after serial passaging (C. auris (MYA-5001)): no change | MIC [5]: 70 µg/mL (≈ 357 µM) | MIC NO Dose ([5]; calculated NO dose at MIC): 10.5 µg/mL (≈ 53.5 µM) | change in MIC or MFCs after serial passaging [6]: no change | checkerboard classification [7, 16]: I (indifferent (I)) | ∑FIC [7, 16]: ≥ 1 | checkerboard classification [7, 17]: I (indifferent (I)) | ∑FIC [7, 17]: ≥ 1 | checkerboard classification [7, 18]: I (indifferent (I)) | ∑FIC [7, 18]: ≥ 1 | checkerboard classification [7, 19]: I (indifferent (I)) | ∑FIC [7, 19]: ≥ 1 | checkerboard classification [7, 20]: I (indifferent (I)) | ∑FIC [7, 20]: ≥ 1 | checkerboard classification [7, 21]: A (additive (A)) | ∑FIC [7, 21]: 0.530
